Data on 2 compounds can be found in PMC6072100, “Exploring the links between peptoid antibacterial activity and toxicity” (MedChemComm, 2017).

Common to all, as to format: cell-based
For series [1], the system named is Pseudomonas aeruginosa PA01 (ATCC 15692). To be noted: for Selectivity Index HaCaT, P. aeruginosa: ED50 HaCaT / MIC P. aeruginosa; for Selectivity Index HepG2, P. aeruginosa: ED50 HepG2 / MIC P. aeruginosa; for Average selectivity P. aeruginosa: average of selectivity to HaCaT and HepG2, selectivity = toxicity/activity. The method, then:
(§1) Escherichia coli K-12 wild-type strain (W3110/ATCC27325, F^–, λ^–, rpoS(Am), rph-1, Inv(rrnD-rrnE)), Pseudomonas aeruginosa PA01 (ATCC 15692) Staphylococcus aureus (3R7089 strain Oxford/ATCC9144) and Staphylococcus epidermidis (laboratory strain from clinical isolate) were selected for bacteriological studies as representative Gram-negative (E. coli and P. aeruginosa) and Gram-positive (S. aureus and S. epidermidis) species. Bacterial cultures were prepared by streaking bacterial strains onto LB agar plates with an inoculation loop and incubated overnight at 37 °C. A single colony was selected and placed in 5 mL of Iso-sensitest broth (Oxoid, ThermoScientific) and incubated with shaking for 16–18 h at 37 °C to provide liquid cultures for testing.
(§2) MIC values were obtained according to the protocol described by J. M. Andrews et al.[58] and were conducted in 96-well plates (Sarstedt). Bacteria were grown from overnight cultures in Iso-sensitest broth to an A650nm of 0.07 equivalent to a 0.5 MacFarland standard (240 μM BaCl2 in 0.18 M H2SO4). This culture was diluted ten-fold with Iso-sensitest broth before use. Peptoids were initially dissolved in DMSO (5 mM) and diluted further in Iso-sensitest broth to achieve a concentration range of 4–200 μM using 2-fold serial dilutions. 50 μl of inoculum and 50 μl of peptoid solution were added to each test well (final concentration range of 2–100 μM). Experiments were performed in triplicate. A positive control for bacterial growth contained only the inoculum and Iso-sensitest broth. Other controls contained the inoculum and serial dilutions of ampicillin (from 250 μg mL^–1 to 2 μg mL^–1), serial dilutions of DMSO and the inoculum to confirm no inhibitory effect on bacterial growth, and Iso-sensitest broth alone as a sterile control. […] Quantitative data was attained from absorbance values using a Biotek Synergy H4 plate reader.
(§3) Antibacterial MIC determination
(§4) Escherichia coli K-12 wild-type strain (W3110 / ATCC27325, F-, λ-, rpoS(Am), rph-1, Inv(rrnD-rrnE)), Pseudomonas aeruginosa PA01 (ATCC 15692) Staphylococcus aureus (3R7089 strain Oxford / ATCC9144) and Staphylococcus epidermidis (laboratory strain from clinical isolate) were selected for bacteriological studies as representative Gram-negative (E. coli and P. aeruginosa) and Gram-positive (S. aureus and S. epidermidis) species. Bacterial cultures were prepared by streaking bacterial strains onto LB agar plates with an inoculation loop and incubated overnight at 37 °C.
(§5) A single colony was selected and placed in 5 mL of Iso-sensitest broth (Oxoid, ThermoScientific) and incubated with shaking for 16-18 h at 37 °C to provide liquid […]
(§6) MIC values were obtained according to the protocol described by J. M. Andrews et al.1 and were conducted in 96-well plates (Sarstedt). Bacteria were grown from overnight cultures in Iso-sensitest broth to an A650nm of 0.07 equivalent to a 0.5 MacFarland standard (240 μM BaCl2 in 0.18 M H2SO4). This culture was diluted ten-fold with Iso-sensitest broth before use. Peptoids were initially dissolved in DMSO (5 mM) and diluted further in Iso-sensitest broth to achieve a concentration range of 4 – 200 µM using 2-fold serial dilutions. 50 μl of inoculum and 50 μl of peptoid solution were added to each test well (final concentration range of 2 – 100 µM). Experiments were performed in triplicate. A positive control for bacterial growth contained only the inoculum and Iso-sensitest broth. Other controls contained the inoculum and serial dilutions of ampicillin (from 250 µg/mL to 2 µg/mL), serial dilutions of DMSO and the inoculum to confirm no inhibitory effect on bacterial growth, and Iso-sensitest broth alone as a sterile control. […]
(§7) growth after incubation at 37 °C for 16 h with shaking. Quantitative data was attained from absorbance values using a Biotek Synergy H4 plate reader.

Series [2] deals with Staphylococcus aureus (3R7089 strain Oxford/ATCC9144). To be noted: for Selectivity Index HaCaT, S. aureus: ED50 HaCaT / MIC S. aureus; for Selectivity Index HepG2, S. aureus: ED50 HepG2 / MIC S. aureus; for Average selectivity S. aureus: average of selectivity to HaCaT and HepG2, selectivity = toxicity/activity. The method, then: as §1, §2, §3, §4, §5, §6, §7
For series [3], the system named is Staphylococcus epidermidis (laboratory strain from clinical isolate). To be noted: for Selectivity Index HaCaT, S. epidermidis: ED50 HaCaT / MIC S. epidermidis; for Selectivity Index HepG2, S. epidermidis: ED50 HepG2 / MIC S. epidermidis; for Average selectivity S. epidermidis: average of selectivity to HaCaT and HepG2, selectivity = toxicity/activity. As to the method: as §1, §2, §3, §4, §5, §6, §7

For the compound `C[C@@H](c1ccccc1)N(CC(N)=O)C(=O)CN(C(=O)CN(CCCCN)C(=O)CN(Cc1ccc(F)cc1)C(=O)CN(Cc1ccc(F)cc1)C(=O)CN(CCCCN)C(=O)CN(C(=O)CN(C(=O)CNCCCCN)[C@@H](C)c1ccccc1)[C@@H](C)c1ccccc1)[C@@H](C)c1ccccc1` [Peptoid 29, (NLysNspeNspe)(NLysNpfbNpfb)(NLysNspeNspe)], in series [1], the “Selectivity Index HaCaT, P. aeruginosa” value is recorded as 3; the “Selectivity Index HepG2, P. aeruginosa” value is 2; the “Average selectivity P. aeruginosa” value is listed as 3. In addition, in series [2], the “Selectivity Index HaCaT, S. aureus” value is reported as 22; the “Selectivity Index HepG2, S. aureus” value is reported as 14; the “Average selectivity S. aureus” value is 21. For the same compound, in series [3], the “Selectivity Index HaCaT, S. epidermidis” value was 33; the “Selectivity Index HepG2, S. epidermidis” value was found to be 22; the “Average selectivity S. epidermidis” value was found to be 28.

Regarding (NhArgNmfbNmfb)4 [Peptoid 36], in series [1], the “Selectivity Index HaCaT, P. aeruginosa” value was 2; the “Selectivity Index HepG2, P. aeruginosa” value is 2; the “Average selectivity P. aeruginosa” value is on record as 2. In addition, in series [2], the “Selectivity Index HaCaT, S. aureus” value was found to be 14; the “Selectivity Index HepG2, S. aureus” value stood at 11; the “Average selectivity S. aureus” value came to 12. In series [3], the “Selectivity Index HaCaT, S. epidermidis” value is reported as 14; the “Selectivity Index HepG2, S. epidermidis” value worked out at 11; the “Average selectivity S. epidermidis” value amounted to 12.
